Anti-infective test results gathered from many reports (values: NIAID ChemDB through PubChem).

All rows: whole-cell or culture tests; agent: Candida albicans; measure: MIC

An empty or dashed field is not shown. Lines come from different laboratories, so protocols vary.

S=C(N/N=C/c1c[nH]c2ccccc12)NC1CCCCC1 ; strain: ATCC 24433 ; method: broth dilution ; result: 500 µg/mL
CCC(C)CC(C)CCCCCCCCC(=O)N[C@H]1C[C@@H](O)[C@H](NCCN)NC(=O)[C@@H]2[C@@H](O)CCN2C(=O)[C@H]([C@H](O)CCN)NC(=O)[C@H]([C@H](O)[C@@H](O)c2ccc(O)cc2)NC(=O)[C@@H]2C[C@@H](O)CN2C(=O)[C@H]([C@@H](C)O)NC1=O ; strain: 8647 ; method: broth dilution ; result: 8 µg/mL
CCCCCCCCn1cc[n+](C)c1 ; result: 500 µg/mL
c1ccc(CO/N=C(/Cn2ccnc2)c2ccccc2)cc1 ; strain: CA12 ; result: 128 µg/mL
CCCCCCNC(=S)N/N=C/C=C/c1ccccc1 ; strain: ATCC 24433 ; method: broth dilution ; result: 500 µg/mL
O=C(CSc1nnc(-c2ccc3ncccc3c2)o1)Nc1nc2ccc([N+](=O)[O-])cc2s1 ; method: agar ; result: 100 µg/mL
CCN1/C(=C(\C#N)n2ccnc2)SCC1C ; result: >100 µg/mL
Cn1ccnc1Cc1nccn1C ; strain: ATCC 10231 ; method: broth dilution ; setting: 48 h ; result: >512 µg/mL
O=C(N/N=C/c1cc(Br)cc(Br)c1O)c1ccccc1F ; method: MTT / broth dilution ; result: >50 µg/mL
CO[C@@H]1C[C@H](C[C@@H](C)[C@@H]2CC(=O)[C@H](C)/C=C(\C)[C@@H](O)[C@@H](OC)C(=O)[C@H](C)C[C@H](C)/C=C/C=C/C=C(\C)[C@@H](N(O)C(=O)N(C)C)C[C@@H]3CC[C@@H](C)[C@@](O)(O3)C(=O)C(=O)N3CCCC[C@H]3C(=O)O2)CC[C@H]1C(=O)ON(C)O ; strain: 579A ; result: 100 µg/mL
COc1ccc(C2c3c(nc(=S)[nH]c3N)Oc3c2c(C)nn3-c2ccccc2)cc1 ; strain: MTCC 227 ; result: 250 µg/mL
Clc1ccc(-c2c[nH]cc2C(c2ccccc2)n2ccnc2)cc1 ; result: 0.66 µg/mL
Nc1ccc(C(=O)Nc2ccccc2O)cc1 ; result: 25 µg/mL
O=c1oc2c(Br)cc(Br)cc2cc1-c1nc2ccccc2c2nc3c4nsnc4ccc3n12 ; result: 4 µg/mL
CCOc1cc2c(cc1F)n([O-])c(C)c(Cl)[n+]2=O ; strain: Clinical isolate 15 ; result: 62.5 µg/mL
Clc1ccc(C(c2c[nH]cc2-c2ccc(-n3cccc3)cc2)n2ccnc2)c(Cl)c1 ; result: 1.3 µg/mL
CCC(C)CC(C)CCCCCCCCC(=O)N[C@H]1C[C@@H](O)[C@H](NCCN)NC(=O)[C@@H]2[C@@H](O)CCN2C(=O)[C@H]([C@H](O)CCN)NC(=O)[C@H]([C@H](O)[C@@H](O)c2ccc(O)cc2)NC(=O)[C@@H]2C[C@@H](O)CN2C(=O)[C@H]([C@@H](C)O)NC1=O ; strain: 10 isolates ; method: broth dilution ; setting: pH 5 ; result: 0.03 µg/mL
Cc1nn(-c2ccccc2)c2c1C(c1ccc(O)cc1)c1c(nc(=S)[nH]c1N)O2 ; strain: MTCC 227 ; result: 250 µg/mL
O=C(/C=C/c1ccc(Cl)c(Cl)c1)c1c[nH]c2ccccc12 ; strain: ATCC 90028 ; method: broth dilution ; result: 200 µg/mL
CO[C@@H]1C[C@H](C[C@@H](C)[C@@H]2CC(=O)[C@H](C)/C=C(\C)[C@@H](O)[C@@H](OC)C(=O)[C@H](C)C[C@H](C)/C=C/C=C/C=C(\C)[C@H](N(OC)C(=O)N(C)C)C[C@@H]3CC[C@@H](C)[C@@](O)(O3)C(=O)C(=O)N3CCCC[C@H]3C(=O)O2)CC[C@H]1C(=O)ON(C)O ; strain: 62376 ; result: >100 µg/mL
C[n+]1c[nH]cc1-c1ccccc1 ; strain: ATCC 10231 ; method: broth dilution ; setting: 48 h ; result: 500 µg/mL
CO[C@H]1C[C@@H]2CC[C@@H](C)[C@@](O)(O2)C(=O)C(=O)N2CCCC[C@H]2C(=O)O[C@H]([C@H](C)C[C@@H]2CC[C@@H](C(=O)ON3CCCCC3)[C@H](OC)C2)CC(=O)[C@H](C)/C=C(\C)[C@@H](O)[C@@H](OC)C(=O)[C@H](C)C[C@H](C)CCCC/C=C/1C ; strain: 38247 ; result: >100 µg/mL
CCC(C)[C@@]1(C(=O)OC)C[C@H](C(=O)OC)[C@H](c2ccccc2)N1C(=S)NC(=O)c1ccccc1 ; strain: ATCC 90028 ; result: 50 µg/mL
COc1ccc(C[C@H](N)C(=O)N[C@H]2[C@@H](O)[C@H](n3cnc4c(N)ncnc43)O[C@@H]2C(=O)O)cc1 ; strain: FP-622 ; result: 3.1 µg/mL
Clc1ccc(-c2nc3ccccc3n2Cc2nnc(Nc3cccc(Cl)c3)s2)cc1 ; result: 12.5 µg/mL
Cn1ccnc1C(CC(=O)O)c1nccn1C ; strain: ATCC 10231 ; method: broth dilution ; setting: 24 h ; result: >512 µg/mL
CC(C)NC(=S)N/N=C/c1c[nH]c2ccccc12 ; strain: ATCC 24433 ; method: broth dilution ; result: 250 µg/mL
COC(=O)[C@]1(C)[C@@H]2C(=O)N(C)C(=O)[C@@H]2[C@H](c2ccccc2I)N1C(=S)NC(=O)c1ccccc1 ; strain: ATCC 90028 ; result: 100 µg/mL
CCCCCCCCCCCCCCCC(=O)NC(CCCCN)C(=O)NC(CCCCN)C(N)=O ; strain: 4900 ; method: broth dilution ; result: 4 µg/mL
O=C1C[C@@H](c2ccc(O)cc2)Oc2cc(O)cc(O)c21 ; result: >250 µg/mL
CO[C@@H]1C[C@H](C[C@@H](C)[C@@H]2CC(=O)[C@H](C)/C=C(\C)[C@@H](O)[C@@H](OC)C(=O)[C@H](C)C[C@H](C)/C=C/C=C/C=C(\C)[C@@H](N(OC)C(=O)N(C)C)C[C@@H]3CC[C@@H](C)[C@@](O)(O3)C(=O)C(=O)N3CCCC[C@H]3C(=O)O2)CC[C@H]1C(=O)ON(C)O ; strain: 442 ; result: 50 µg/mL
Clc1ccc(-c2nc3ccccc3n2Cc2nnc(Nc3ccc(Br)cc3)s2)cc1 ; result: 50 µg/mL
Cc1ccc(C2C(C#N)=C(N)Oc3c2c(C)nn3-c2ccccc2)cc1 ; strain: MTCC 227 ; result: 500 µg/mL
Clc1ccc(Cc2nc3ccccc3o2)cc1 ; result: 25 µg/mL
Fc1ccc(Nc2nnc(Cn3c(-c4ccc(Cl)cc4)nc4ccccc43)s2)cc1 ; result: 50 µg/mL
Cc1c(S(=O)(=O)c2ccccc2)[n+](=O)c2ccccc2n1[O-] ; strain: Clinical isolate 23 ; result: 15.6 µg/mL
O=C(CSc1nnc(-c2ccc3ncccc3c2)o1)Nc1ccc(Br)cc1 ; method: agar ; result: 100 µg/mL
COc1ccc(-c2nc3ccccc3o2)cc1 ; result: 100 µg/mL
Cc1c(Sc2ccccc2)[n+](=O)c2cc(C(F)(F)F)ccc2n1[O-] ; strain: Clinical isolate 10 ; result: 31.25 µg/mL
CC(=O)N1CCN(c2ccc(OC[C@H]3CO[C@](Cn4ccnc4)(c4ccc(Cl)cc4Cl)O3)cc2)CC1 ; strain: 10 isolates ; method: broth dilution ; setting: pH 4 ; result: 0.5 µg/mL
O=C(CSc1nnc(-c2ccc3ncccc3c2)o1)Nc1ccc(I)cc1 ; method: agar ; result: 100 µg/mL
Clc1ccc(/C(Cn2ccnc2)=N/OCc2ccccc2)c(Cl)c1 ; strain: CA6 ; result: 4 µg/mL
CC[C@@H]([C@H](C)O)n1ncn(-c2ccc(N3CCN(c4ccc(OC[C@@H]5CO[C@@](Cn6cncn6)(c6ccc(F)cc6F)C5)cc4)CC3)cc2)c1=O ; strain: 8649 ; method: broth dilution ; result: 0.03 µg/mL
N#CC(CC(=O)O)C(N)C(=O)O ; strain: ATCC 32354 (B311) ; result: 0.8 µg/mL
Cn1cnc(-c2ccccc2)c1 ; strain: ATCC 10231 ; method: broth dilution ; setting: 48 h ; result: 500 µg/mL
COC(=O)[C@H]1C[C@](C(=O)OC)(c2ccccc2)N(C(=S)NC(=O)c2ccccc2)[C@H]1c1ccccc1 ; strain: ATCC 90028 ; result: 100 µg/mL
COC(=O)[C@H]1[C@@H]2C[C@@H](O[C@@H]3O[C@H](C)[C@@H](O)[C@H](N)[C@@H]3O)/C=C/C=C/C=C/C=C/C=C/C=C/C=C/[C@H](C)[C@@H](O)[C@H](C)[C@H](C)OC(=O)C[C@H](O)C[C@H](O)[C@@H](O)CC[C@H](O)C[C@H](O)C[C@](O)(C[C@@H]1O)O2 ; strain: 15 isolates ; method: broth dilution ; setting: pH 4 ; result: 8 µg/mL
CC1(C)S[C@@H]2[C@H](NC(=O)Cc3ccccc3)C(=O)N2[C@H]1C(=O)O ; method: MTT / broth dilution ; result: >50 µg/mL
Clc1ccc(COC(Cn2ccnc2)c2ccc(Cl)cc2Cl)c(Cl)c1 ; strain: ATCC 10231 ; result: 0.5 µg/mL
Clc1ccc(-c2nc3ccccc3n2Cc2nnc(Nc3cccc(Br)c3)s2)cc1 ; result: 25 µg/mL
COc1ccc(C(Cc2ccccc2[N+](=O)[O-])n2ccnc2)cc1 ; result: 97 µg/mL
CCCCCCCCCCCCCCCCn1cc[n+](C)c1 ; result: 8 µg/mL
COc1cccc(OC)c1C(=O)Nc1cc(Cl)ccc1O ; result: 25 µg/mL
Cc1ccc(N2N=C(c3c[nH]c4ccccc34)CC2c2c(Cl)cccc2Cl)cc1 ; strain: ATCC 90028 ; method: broth dilution ; result: 200 µg/mL
O=C(C(=C1SCCCS1)n1ccnc1)c1ccc(Cl)cc1 ; result: >100 µg/mL
Cc1ccc(Nc2nnc(Cn3c(-c4ccc(Cl)cc4)nc4ccccc43)s2)cc1 ; result: 100 µg/mL
O=C(/C=C/c1c(Cl)cccc1Cl)c1c[nH]c2ccccc12 ; strain: ATCC 90028 ; method: broth dilution ; result: 200 µg/mL
CC1CCS/C(=C(/C#N)n2ccnc2)S1 ; result: 50 µg/mL
Clc1ccc(/C(Cn2ccnc2)=N/OCc2ccccc2)cc1 ; strain: 5M ; result: 64 µg/mL
Cc1c(Sc2ccccc2)[n+](=O)c2cc(Cl)ccc2n1[O-] ; strain: Clinical isolate 13 ; result: 15.6 µg/mL
Fc1ccccc1Nc1nnc(Cn2c(-c3ccc(Cl)cc3)nc3ccccc32)s1 ; result: 25 µg/mL

8 of the rows above, restated:

SMILES,strain,method,setting,result
COc1ccc(C[C@H](N)C(=O)N[C@H]2[C@@H](O)[C@H](n3cnc4c(N)ncnc43)O[C@@H]2C(=O)O)cc1,FP-622,,,3.1 µg/mL
CC1(C)S[C@@H]2[C@H](NC(=O)Cc3ccccc3)C(=O)N2[C@H]1C(=O)O,,MTT / broth dilution,,>50 µg/mL
Clc1ccc(-c2nc3ccccc3n2Cc2nnc(Nc3cccc(Br)c3)s2)cc1,,,,25 µg/mL
O=C(/C=C/c1c(Cl)cccc1Cl)c1c[nH]c2ccccc12,ATCC 90028,broth dilution,,200 µg/mL
Clc1ccc(Cc2nc3ccccc3o2)cc1,,,,25 µg/mL
CO[C@@H]1C[C@H](C[C@@H](C)[C@@H]2CC(=O)[C@H](C)/C=C(\C)[C@@H](O)[C@@H](OC)C(=O)[C@H](C)C[C@H](C)/C=C/C=C/C=C(\C)[C@@H](N(OC)C(=O)N(C)C)C[C@@H]3CC[C@@H](C)[C@@](O)(O3)C(=O)C(=O)N3CCCC[C@H]3C(=O)O2)CC[C@H]1C(=O)ON(C)O,442,,,50 µg/mL
N#CC(CC(=O)O)C(N)C(=O)O,ATCC 32354 (B311),,,0.8 µg/mL
C[n+]1c[nH]cc1-c1ccccc1,ATCC 10231,broth dilution,48 h,500 µg/mL